Measured values from several laboratories, pooled; numbers as filed in NIAID ChemDB.

Shared fields: growth or infection tests; agent: HIV-1; measure: EC50

Blank or dashed fields: not listed here.

{"compound": "CN(C)CCCc1cccnc1CN(C)Cc1nc2ccccc2[nH]1", "strain": "IIIB", "method": "syncytia", "cell line": "C8166", "value": "9.247 µM"}
{"compound": "COc1ccc(N(C)C(=O)[C@H](Cc2ccccc2)NS(=O)(=O)CCCS(=O)(=O)N[C@@H](Cc2ccccc2)C(=O)N(C)c2ccc(OC)cc2)cc1", "strain": "NL4-3", "method": "luciferase", "cell line": "MT-2", "value": "1.4 µM"}
{"compound": "CCN(CC)C(=O)OCC1CN(C(=O)c2ccccc2)CCN1C(=O)c1ccccc1", "strain": "BaL", "method": "RT activity", "cell line": "MDM", "value": ">100 µM"}
{"compound": "COc1ccc(OS(=O)(=O)c2c(O)c(-c3cc(C)on3)c(OC)c3ccoc23)cc1", "strain": "IIIB", "method": "MTT", "cell line": "MT-4", "value": "0.000028 µM"}
{"compound": "Fc1ccc(Nc2ncc(Cc3c(Cl)cccc3Cl)o2)cc1", "strain": "IIIB", "method": "MTT", "cell line": "MT-2", "value": "0.43 µM"}
{"compound": "C.NCCCCN(Cc1nc2ccccc2[nH]1)C1CCCn2ccnc21", "strain": "IIIB", "method": "syncytia", "cell line": "C8166", "value": "0.139 µM"}
{"compound": "COc1c2ccoc2c(S(=O)(=O)OC2CCCC2)c2oc(C)cc(=O)c12", "strain": "IIIB", "method": "MTT", "cell line": "MT-4", "value": "0.000058 µM"}
{"compound": "COc1ccc(N(C)C(=O)[C@H](Cc2cc(F)cc(F)c2)NC(=O)NS(=O)(=O)N[C@@H](Cc2cc(F)cc(F)c2)C(=O)N(C)c2ccc(OC)c(F)c2)cc1F", "strain": "NL4-3", "method": "luciferase", "cell line": "MT-2", "value": "0.03 µM"}
{"compound": "COc1cc2c(cc1Cc1cccc(Cl)c1F)c(=O)c(C(=O)O)cn2[C@H](CO)C(C)C", "changes": "G118R", "strain": "NL4-3", "method": "RT activity", "cell line": "PM1", "value": "0.0012 µM"}
{"compound": "COc1ccc(N(C)C(=O)[C@H](Cc2ccccc2)NC(=O)Cc2ccccc2CC(=O)N[C@@H](Cc2ccccc2)C(=O)N(C)c2ccc(OC)cc2)cc1", "strain": "NL4-3", "method": "luciferase", "cell line": "MT-2", "value": "0.55 µM"}
{"compound": "COc1ccc(N/C(C)=C\\C(=O)c2c(O)c(S(=O)(=O)Oc3ccc([N+](=O)[O-])cc3)c3occc3c2OC)cc1", "strain": "RF", "method": "cytopathic effect / MTS", "cell line": "CEM-SS", "value": "0.000065 µM"}
{"compound": "CN(Cc1ncccc1CCC#N)Cc1nc2ccccc2n1C(=O)OC(C)(C)C", "strain": "IIIB", "method": "syncytia", "cell line": "C8166", "value": "14 µM"}
{"compound": "Cc1cc(C#N)cc(C)c1Nc1nnc(Nc2ccc(Cl)cc2)o1", "strain": "IIIB", "method": "MTT", "cell line": "MT-2", "value": "34 µM"}
{"compound": "CCOCn1c(Cc2cccc(Cc3c(CC)c(=O)[nH]c(=O)n3COCC)c2)c(CC)c(=O)[nH]c1=O", "changes": "RT-Y181C", "strain": "NNRTI-resistant", "method": "cytopathic effect / MTT", "cell line": "MT-4", "value": ">100 µM"}
{"compound": "COc1c(-c2cc(C)[nH]n2)c(O)c(S(=O)(=O)Oc2ccc([N+](=O)[O-])cc2)c2occc12", "strain": "IIIB", "method": "MTT", "cell line": "MT-4", "value": "0.000023 µM"}
{"compound": "COc1ccc(N(C)C(=O)[C@H](Cc2cc(F)cc(F)c2)NC(=O)Cn2c(=O)c3ccccc3n(CC(=O)N[C@@H](Cc3cc(F)cc(F)c3)C(=O)N(C)c3ccc(OC)cc3)c2=O)cc1", "strain": "NL4-3", "method": "luciferase", "cell line": "MT-2", "value": "0.03 µM"}
{"compound": "N#Cc1ccc(Nc2nnc(Cc3c(F)cccc3F)o2)cc1", "strain": "IIIB", "method": "MTT", "cell line": "MT-2", "value": "0.23 µM"}
{"compound": "CCN(CC)C(=O)OCC1CN(C(=S)c2cc(OC)c(OC)c(OC)c2)CCN1C(=S)c1cc(OC)c(OC)c(OC)c1", "strain": "BaL", "method": "RT activity", "cell line": "MDM", "value": "<10 µM"}
{"compound": "CN(Cc1ncc[nH]1)Cc1ncccc1CCC#N", "strain": "IIIB", "method": "syncytia", "cell line": "C8166", "value": "15.8 µM"}
{"compound": "COc1ccc(N(C)C(=O)[C@H](Cc2ccccc2)NC(=O)NS(=O)(=O)N[C@@H](Cc2ccccc2)C(=O)N(C)c2cc(C)c(OC)cc2C)cc1", "strain": "NL4-3", "method": "luciferase", "cell line": "MT-2", "value": "4.22 µM"}
{"compound": "CCc1c(Cc2cccc(Cc3nc(SC)nc(OC)c3CC)c2)nc(SC)nc1OC", "changes": "RT-K103N Y181C", "strain": "RT-K103N+Y181C NNRTI-resistant", "method": "cytopathic effect / MTT", "cell line": "MT-4", "value": ">100 µM"}
{"compound": "Clc1ccc(Nc2nnc(Cc3c(Cl)cccc3Cl)o2)cc1", "strain": "IIIB", "method": "MTT", "cell line": "MT-2", "value": "0.88 µM"}
{"compound": "Cc1nc2cc(N(C)C(=O)[C@H](Cc3cc(F)cc(F)c3)NC(=O)NS(=O)(=O)N[C@@H](Cc3cc(F)cc(F)c3)C(=O)N(C)c3ccc4sc(C)nc4c3)ccc2s1", "strain": "NL4-3", "method": "luciferase", "cell line": "MT-2", "value": "0.19 µM"}
{"compound": "CN(Cc1nc2ccccc2[nH]1)Cc1ncccc1CCCNC(=O)Cc1ccc(F)cc1", "strain": "IIIB", "method": "syncytia", "cell line": "C8166", "value": "4.433 µM"}
{"compound": "CCCc1cc(=O)oc2c3c(c4c(c12)OC(C)(C)CC4)O[C@H](C)[C@@H](C)C3=O", "strain": "ADA", "method": "cytopathic effect / XTT", "cell line": "Macrophage + Macrophages", "value": "1.76 µM"}
{"compound": "COc1c(C(=O)/C=C(/C)Nc2ccccc2)c(O)c(S(=O)(=O)Oc2ccc(F)cc2)c2occc12", "strain": "IIIB", "method": "MTT", "cell line": "MT-4", "value": "0.000039 µM"}
{"compound": "Clc1ccc(Cc2nnc(Cc3c(Cl)cccc3Cl)o2)cc1", "strain": "IIIB", "method": "MTT", "cell line": "MT-2", "value": "18 µM"}
{"compound": "CCc1c(Cc2cccc(Cc3nc(N4CCCCC4)[nH]c(=O)c3CC)c2)nc(N2CCCCC2)[nH]c1=O", "changes": "RT-Y181C", "strain": "NNRTI-resistant", "method": "cytopathic effect / MTT", "cell line": "MT-4", "value": ">80 µM"}
{"compound": "N#CC1=CC2Nc3ccccc3C2N(c2ccc([N+](=O)[O-])cc2)C1=O", "strain": "7295-1", "method": "GFP / fluorescence", "cell line": "HeLa", "value": "0.08 µM"}
{"compound": "CN(Cc1nc2ccccc2[nH]1)Cc1ncccc1CCC(=O)N(C)C", "strain": "IIIB", "method": "syncytia", "cell line": "C8166", "value": "21.2 µM"}
{"compound": "Cc1cc(C)cc(S(=O)(=O)c2c(C(=O)NCCO)[nH]c3ccc(Cl)cc23)c1", "changes": "RT-K103R V179D P225H", "strain": "EFV-resistant (RT K103R V179D P225H)", "method": "p24", "cell line": "C8166", "value": "<0.1 µM"}
{"compound": "C[C@@H]1CCO[C@H]2Cn3cc(C(=O)NCc4ccc(F)cc4F)c(=O)c(O)c3C(=O)N12", "changes": "M184I-R263K", "strain": "NL4-3", "method": "luciferase", "cell line": "TZM-bl", "value": "0.0042 µM"}
{"compound": "CCN(CC)C(=O)OCC1CN(C(=O)c2cc(OC)c(OC)c(OC)c2)CCN1C(=S)c1cc(OC)c(OC)c(OC)c1", "strain": "BaL", "method": "RT activity", "cell line": "MDM", "value": ">100 µM"}
{"compound": "N#Cc1nc(Cc2cccc3ccccc23)oc1NC[C@H]1CCCO1", "strain": "IIIB", "method": "MTT", "cell line": "MT-2", "value": "6.2 µM"}
{"compound": "Cc1ccc(-c2ccc3c(c2)C=C(C(=O)Nc2ccc(C[N+](C)(C)C4CCOCC4)cc2)CCC3)cc1", "strain": "Du104 CLADE C", "method": "p24", "cell line": "PBMC", "value": "<1 µM"}
{"compound": "CCc1c(Cc2cccc(Cc3nc(SC)n(C)c(=O)c3CC)c2)nc(SC)n(C)c1=O", "method": "cytopathic effect / MTT", "cell line": "MT-4", "value": ">100 µM"}
{"compound": "CC(c1nnc(Nc2ccc(C#N)cc2)o1)c1c(F)cccc1F", "strain": "IIIB", "method": "MTT", "cell line": "MT-2", "value": "0.2 µM"}
{"compound": "CCc1c(Cc2cccc(Cc3nc(N(C)C)[nH]c(=O)c3CC)c2)nc(N(C)C)[nH]c1=O", "method": "cytopathic effect / MTT", "cell line": "MT-4", "value": ">100 µM"}
{"compound": "C[C@]1(CO)O[C@@H](n2cnc3c(N)ncnc32)C[C@@H]1O", "changes": "SSGR+T215Y (delta)Env", "method": "luciferase", "cell line": "HOS", "value": "0.025 µM"}
{"compound": "C=C(CC[C@](C)(O)[C@H]1C(=O)C[C@H]2[C@@H]3[C@H](O)C[C@H]4CC(=O)CC[C@]4(C)[C@H]3CC[C@@]21C)C(C)C", "strain": "NL4-3", "method": "MTT", "cell line": "MT-4", "value": "6.25 µM"}
{"compound": "Cc1ccc(Nc2ncc(Cc3c(Cl)cccc3Cl)o2)cc1", "strain": "IIIB", "method": "MTT", "cell line": "MT-2", "value": "1 µM"}
{"compound": "CC(C)CN(C[C@@H](O)[C@H](Cc1ccccc1)NC(=O)O[C@H]1CCOC1)S(=O)(=O)c1ccc(N)cc1", "changes": "L10F I47V L90M", "strain": "T21217", "method": "reporter gene", "cell line": "MT-4", "value": "3650 nM"}
{"compound": "CCN(CC)C(=O)OCC1CN(C(=O)c2cc(OC)c(OC)c(OC)c2)CCN1Cc1ccccc1", "strain": "BaL", "method": "RT activity", "cell line": "MDM", "value": "40 µM"}
{"compound": "C[C@H]1[C@H](O)[C@@H](C)/C=C/C=C/C=C/C=C/C=C/C=C/C=C/[C@H](O[C@@H]2O[C@H](C)[C@@H](O)[C@H](N)[C@@H]2O)C[C@@H]2O[C@](O)(C[C@@H](O)C[C@@H](O)CC[C@H](O)[C@@H](O)C[C@@H](O)CC(=O)O[C@H]1C)C[C@H](O)[C@H]2C(=O)O", "strain": "JV1083 CLADE G R5 (NSI)", "method": "p24 / RT activity", "cell line": "PBMC", "value": "1.3 µM"}
{"compound": "Clc1ccc(Nc2nnc(Cc3c(Cl)cccc3Cl)o2)c(Cl)c1", "strain": "IIIB", "method": "MTT", "cell line": "MT-2", "value": "2.4 µM"}
{"compound": "CC(C)[C@H](C)CC[C@](C)(O)[C@H]1C(=O)C[C@H]2[C@@H]3C(=O)C=C4C[C@@H](O)CC[C@]4(C)[C@H]3CC[C@@]21C", "changes": "Y181C IN-resistant", "strain": "NL4-3", "method": "MTT", "cell line": "MT-4", "value": "0.119 µM"}
{"compound": "COc1c(C(=O)/C=C(/C)Nc2ccc(F)cc2)c(O)c(S(=O)(=O)Oc2ccc(F)cc2)c2occc12", "strain": "IIIB", "method": "MTT", "cell line": "MT-4", "value": "0.000036 µM"}
{"compound": "C#C[C@@]1(COP(=O)(O)OP(=O)(O)OP(=O)(O)O)C=C[C@H](n2cc(C)c(=O)[nH]c2=O)O1", "changes": "P119S/T165A/M184V", "strain": "NL4-3", "method": "luciferase", "cell line": "TZM-bl", "value": "4.9 µM"}
{"compound": "CCOC(=O)C(CC)C(=O)Cc1cccc(Cc2[nH]c(=O)c(CC)c(O)c2CC)c1", "changes": "RT-K103N Y181C", "strain": "RT-K103N+Y181C NNRTI-resistant", "method": "cytopathic effect / MTT", "cell line": "MT-4", "value": ">100 µM"}
{"compound": "COc1ccc(N(C)C(=O)[C@H](Cc2ccccc2)NS(=O)(=O)NC(=O)N[C@@H](Cc2ccccc2)C(=O)N(C)c2ccc3scnc3c2)cc1", "strain": "NL4-3", "method": "luciferase", "cell line": "MT-2", "value": "0.03 µM"}
{"compound": "COc1c(-c2cc(C)n(C)n2)c(O)c(S(=O)(=O)Oc2ccc([N+](=O)[O-])cc2)c2occc12", "strain": "IIIB", "method": "MTT", "cell line": "MT-4", "value": "0.000015 µM"}
{"compound": "COC[C@@H](c1ccc(C(F)(F)F)cc1)N1CCN(C2(C)CCN(C(=O)c3c(C)ncnc3C)CC2)C[C@@H]1C", "changes": "V535M", "strain": "R14/S", "cell line": "TZM-bl", "value": "0.03 µM"}
{"compound": "COc1c(C(=O)/C=C(/C)Nc2ccccc2)c(O)c(S(=O)(=O)OC2CCCCC2)c2occc12", "strain": "IIIB", "method": "MTT", "cell line": "MT-4", "value": "0.000047 µM"}
{"compound": "CN(C(=O)[C@H](Cc1cc(F)cc(F)c1)NC(=O)CN1c2ccccc2N(CC(=O)N[C@@H](Cc2cc(F)cc(F)c2)C(=O)N(C)c2ccc3c(c2)ncn3C)S1(=O)=O)c1ccc2c(c1)ncn2C", "strain": "NL4-3", "method": "luciferase", "cell line": "MT-2", "value": "0.42 µM"}
{"compound": "CCN(CC)C(=O)OCC1CN(C(C#N)(c2ccccc2)c2ccccc2)CCN1C(=O)c1cc(OC)c(OC)c(OC)c1", "strain": "BaL", "method": "RT activity", "cell line": "MDM", "value": ">10 µM"}
{"compound": "COc1c(-c2cc(C)on2)c(O)c(S(=O)(=O)Oc2ccc(F)cc2)c2occc12", "strain": "RF", "method": "cytopathic effect / MTS", "cell line": "CEM-SS", "value": "0.000051 µM"}

4 of the rows above, restated:

compound,changes,strain,method,cell line,value
Cc1nc2cc(N(C)C(=O)[C@H](Cc3cc(F)cc(F)c3)NC(=O)NS(=O)(=O)N[C@@H](Cc3cc(F)cc(F)c3)C(=O)N(C)c3ccc4sc(C)nc4c3)ccc2s1,-,NL4-3,luciferase,MT-2,0.19 µM
COc1c(C(=O)/C=C(/C)Nc2ccccc2)c(O)c(S(=O)(=O)OC2CCCCC2)c2occc12,-,IIIB,MTT,MT-4,0.000047 µM
COc1ccc(N(C)C(=O)[C@H](Cc2cc(F)cc(F)c2)NC(=O)Cn2c(=O)c3ccccc3n(CC(=O)N[C@@H](Cc3cc(F)cc(F)c3)C(=O)N(C)c3ccc(OC)cc3)c2=O)cc1,-,NL4-3,luciferase,MT-2,0.03 µM
COc1ccc(N(C)C(=O)[C@H](Cc2cc(F)cc(F)c2)NC(=O)NS(=O)(=O)N[C@@H](Cc2cc(F)cc(F)c2)C(=O)N(C)c2ccc(OC)c(F)c2)cc1F,-,NL4-3,luciferase,MT-2,0.03 µM

ECn: concentration that inhibits the pathogen or its effect by n%. Neighbouring rows are from separate reports.